Laboratory results published in PubChem BioAssay AID540257 (Southern Research Specialized Biocontainment Screening …, 2011).
The list shows a part of the results, in another mix than the full data. Potency and affinity values are given separately. The source made the active and inactive calls. No rule for the calls is given here.

Experiment: antiviral activity against H1N1 influenza, dose response, cell-based, strain KY136 (AID 540257)
Settings: H1N1 KY136 influenza antiviral cell assay, % inhibition; at 40 µM (top of the series)

SMILES | inhibition
COc1cc(C(=O)NCC2(N3CCOCC3)CCCCC2)cc(Cl)c1OC(C)C | inactive: -13.8%
CCC(C)N(CC(C)C)C(=S)SC(NC(C)=O)C(Cl)(Cl)Cl (configuration not stated) | inactive: -2.48%
